Literature values, collected in PubChem BioAssay AID1811.

What was measured:
Test in all cases: PubChem AID 1811
[1] = target: heat-labile enterotoxin; conditions: PDB complex binding affinities from literature; IC50 when reported
[2] = target: glutamine synthetase; conditions: PDB complex binding affinities from literature; Ki when reported
[3] = target: heat-labile enterotoxin b chain; conditions: PDB complex binding affinities from literature; IC50 when reported

OC[C@H]1O[C@@H](S[C@@H]2O[C@H](CO)[C@H](O)[C@H](O)[C@H]2O)[C@H](O)[C@@H](O)[C@H]1O
IC50 [1]: 2000 µM

CP(=O)(O)CC[C@H](N)C(=O)O
Ki [2]: 1 µM

Nc1ccc(O[C@H]2O[C@H](CO)[C@H](O)[C@H](O)[C@H]2O)cc1
IC50 [3]: 12000 µM
